Measured values reported in patent US20220033460A1, “IDENTIFICATION AND USE OF T CELL EPITOPES IN DESIGNING DIAGNOSTIC AND THERAPEUTIC APPROACHES FOR COVID-19” (priority 2020, published 2022).

System: CD8+ T cells
Assay type: cell-based, human
Settings: cells of the TCR clonotype specific for the epitope / HLA class I of the same line

B1: TCR_71: TCR to … / A*02:01 (protein)
TCR alpha: AQKVTQAQTEISVVEKEDVTLDCVYETRDTTYYLFWYKQPPSGELVFLIRRNSFDEQNEISGRYSWNFQKSTSSFNFTITASQVVDSAVYFCALTGNTGGFKTIFGAGTRLFVKANIQNPDPAVYQLRDSKSSDKSVCLFTDFDSQTNVSQSKDSDVYITDKTVLDMRSMDFKSNSAVAWSNKSDFACANAFNNSIIPEDTFFPSPESSCDVKLVEKSFETDTNLNFQNLSVIGFRILLLKVAGFNLLMTLRLWSS
TCR beta: EAGVAQSPRYKIIEKRQSVAFWCNPISGHATLYWYQQILGQGPKLLIQFQNNGVVDDSQLPKDRFSAERLKGVDSTLKIQPAKLEDSAVYLCASSLDSSLGYGYTFGSGTRLTVVEDLNKVFPPEVAVFEPSEAEISHTQKATLVCLATGFFPDHVELSWWVNGKEVHSGVSTDPQPLKEQPALNDSRYCLSSRLRVSATFWQNPRNHFRCQVQFYGLSENDEWTQDRAKPVTQIVSAEAWGRADCGFTSVSYQQGVLSATILYEILLGKATLYAVLVSALVLMAMVKRKDF
No. of Cells: 2

B2: TCR_65: TCR to … / A*02:01 (protein)
TCR alpha: RKEVEQDPGPFNVPEGATVAFNCTYSNSASQSFFWYRQDCRKEPKLLMSVYSSGNEDGRFTAQLNRASQYISLLIRDSKLSDSATYLCVVNRDTGNQFYFGTGTSLTVIPNIQNPDPAVYQLRDSKSSDKSVCLFTDFDSQTNVSQSKDSDVYITDKTVLDMRSMDFKSNSAVAWSNKSDFACANAFNNSIIPEDTFFPSPESSCDVKLVEKSFETDTNLNFQNLSVIGFRILLLKVAGFNLLMTLRLWSS
TCR beta: SQTIHQWPATLVQPVGSPLSLECTVEGTSNPNLYWYRQAAGRGLQLLFYSVGIGQISSEVPQNLSASRPQDRQFILSSKKLLLSDSGFYLCAWLRDMNTGELFFGEGSRLTVLEDLKNVFPPKVAVFEPSEAEISHTQKATLVCLATGFYPDHVELSWWVNGKEVHSGVSTDPQPLKEQPALNDSRYCLSSRLRVSATFWQNPRNHFRCQVQFYGLSENDEWTQDRAKPVTQIVSAEAWGRADCGFTSESYQQGVLSATILYEILLGKATLYAVLVSALVLMAMVKRKDSRG
No. of Cells: 2

B3: TCR_56: TCR to … / A*24:02 (protein)
TCR alpha: QTVTQSQPEMSVQEAETVTLSCTYDTSESDYYLFWYKQPPSRQMILVIRQEAYKQQNATENRFSVNFQKAAKSFSLKISDSQLGDAAMYFCAGNTGTASKLTFGTGTRLQVTLDIQNPDPAVYQLRDSKSSDKSVCLFTDFDSQTNVSQSKDSDVYITDKTVLDMRSMDFKSNSAVAWSNKSDFACANAFNNSIIPEDTFFPSPESSCDVKLVEKSFETDTNLNFQNLSVIGFRILLLKVAGFNLLMTLRLWSS
TCR beta: DAGVTQSPTHLIKTRGQQVTLRCSPISGHKSVSWYQQVLGQGPQFIFQYYEKEERGRGNFPDRFSARQFPNYSSELNVNALLLGDSALYLCASSLWGGYTEAFFGQGTRLTVVEDLNKVFPPEVAVFEPSEAEISHTQKATLVCLATGFFPDHVELSWWVNGKEVHSGVSTDPQPLKEQPALNDSRYCLSSRLRVSATFWQNPRNHFRCQVQFYGLSENDEWTQDRAKPVTQIVSAEAWGRADCGFTSVSYQQGVLSATILYEILLGKATLYAVLVSALVLMAMVKRKDF
No. of Cells: 2

B4: TCR_69: TCR to … / A*02:01 (protein)
TCR alpha: QKEVEQNSGPLSVPEGAIASLNCTYSDRGSQSFFWYRQYSGKSPELIMSIYSNGDKEDGRFTAQLNKASQYVSLLIRDSQPSDSATYLCAVNEGGGSYIPTFGRGTSLIVHPYIQNPDPAVYQLRDSKSSDKSVCLFTDFDSQTNVSQSKDSDVYITDKTVLDMRSMDFKSNSAVAWSNKSDFACANAFNNSIIPEDTFFPSPESSCDVKLVEKSFETDTNLNFQNLSVIGFRILLLKVAGFNLLMTLRLWSS
TCR beta: KAGVTQTPRYLIKTRGQQVTLSCSPISGHRSVSWYQQTPGQGLQFLFEYFSETQRNKGNFPGRFSGRQFSNSRSEMNVSTLELGDSALYLCASSLAMGTSGGPYNEQFFGPGTRLTVLEDLKNVFPPKVAVFEPSEAEISHTQKATLVCLATGFYPDHVELSWWVNGKEVHSGVSTDPQPLKEQPALNDSRYCLSSRLRVSATFWQNPRNHFRCQVQFYGLSENDEWTQDRAKPVTQIVSAEAWGRADCGFTSESYQQGVLSATILYEILLGKATLYAVLVSALVLMAMVKRKDSRG
No. of Cells: 2

B5: TCR_66: TCR to … / A*24:02 (protein)
TCR alpha: RKEVEQDPGPFNVPEGATVAFNCTYSNSASQSFFWYRQDCRKEPKLLMSVYSSGNEDGRFTAQLNRASQYISLLIRDSKLSDSATYLCVVNRDNDMRFGAGTRLTVKPNIQNPDPAVYQLRDSKSSDKSVCLFTDFDSQTNVSQSKDSDVYITDKTVLDMRSMDFKSNSAVAWSNKSDFACANAFNNSIIPEDTFFPSPESSCDVKLVEKSFETDTNLNFQNLSVIGFRILLLKVAGFNLLMTLRLWSS
TCR beta: MSNQVLCCVVLCFLGANTVDGGITQSPKYLFRKEGQNVTLSCEQNLNHDAMYWYRQDPGQGLRLIYYSQIVNDFQKGDIAEGYSVSREKKESFPLTVTSAQKNPTAFYLCASMDLNTGELFFGEGSRLTVLEDLKNVFPPKVAVFEPSEAEISHTQKATLVCLATGFYPDHVELSWWVNGKEVHSGVSTDPQPLKEQPALNDSRYCLSSRLRVSATFWQNPRNHFRCQVQFYGLSENDEWTQDRAKPVTQIVSAEAWGRADCGFTSESYQQGVLSATILYEILLGKATLYAVLVSALVLMAMVKRKDSRG
No. of Cells: 2

B6: TCR_63: TCR to … / A*02:01 (protein)
TCR alpha: RKEVEQDPGPFNVPEGATVAFNCTYSNSASQSFFWYRQDCRKEPKLLMSVYSSGNEDGRFTAQLNRASQYISLLIRDSKLSDSATYLCVVNMGRGYSTLTFGKGTMLLVSPDIQNPDPAVYQLRDSKSSDKSVCLFTDFDSQTNVSQSKDSDVYITDKTVLDMRSMDFKSNSAVAWSNKSDFACANAFNNSIIPEDTFFPSPESSCDVKLVEKSFETDTNLNFQNLSVIGFRILLLKVAGFNLLMTLRLWSS
TCR beta: DAGVTQSPTHLIKTRGQQVTLRCSPKSGHDTVSWYQQALGQGPQFIFQYYEEEERQRGNFPDRFSGHQFPNYSSELNVNALLLGDSALYLCASSPVAGGNTGELFFGEGSRLTVLEDLKNVFPPKVAVFEPSEAEISHTQKATLVCLATGFYPDHVELSWWVNGKEVHSGVSTDPQPLKEQPALNDSRYCLSSRLRVSATFWQNPRNHFRCQVQFYGLSENDEWTQDRAKPVTQIVSAEAWGRADCGFTSESYQQGVLSATILYEILLGKATLYAVLVSALVLMAMVKRKDSRG
No. of Cells: 2

B7: TCR_70: TCR to … / A*02:01 (protein)
TCR alpha: EDQVTQSPEALRLQEGESSSLNCSYTVSGLRGLFWYRQDPGKGPEFLFTLYSAGEEKEKERLKATLTKKESFLHITAPKPEDSATYLCAVHLNDYKLSFGAGTTVTVRANIQNPDPAVYQLRDSKSSDKSVCLFTDFDSQTNVSQSKDSDVYITDKTVLDMRSMDFKSNSAVAWSNKSDFACANAFNNSIIPEDTFFPSPESSCDVKLVEKSFETDTNLNFQNLSVIGFRILLLKVAGFNLLMTLRLWSS
TCR beta: MDTRVLCCAVICLLGAGLSNAGVMQNPRHLVRRRGQEARLRCSPVKGHSHVYWYRQLPEEGLKFMVYLQKENIIDESGMPKERFSAEFPKEGPSILRIQQVVRGDSAAYFCASSRPSGQGNNGYTFGSGTRLTVVEDLNKVFPPEVAVFEPSEAEISHTQKATLVCLATGFFPDHVELSWWVNGKEVHSGVSTDPQPLKEQPALNDSRYCLSSRLRVSATFWQNPRNHFRCQVQFYGLSENDEWTQDRAKPVTQIVSAEAWGRADCGFTSVSYQQGVLSATILYEILLGKATLYAVLVSALVLMAMVKRKDF
No. of Cells: 2

B8: TCR_58: TCR to … / A*02:01 (protein)
TCR alpha: GQQLNQSPQSMFIQEGEDVSMNCTSSSIFNTWLWYKQDPGEGPVLLIALYKAGELTSNGRLTAQFGITRKDSFLNISASIPSDVGIYFCAGQRDDMRFGAGTRLTVKPNIQNPDPAVYQLRDSKSSDKSVCLFTDFDSQTNVSQSKDSDVYITDKTVLDMRSMDFKSNSAVAWSNKSDFACANAFNNSIIPEDTFFPSPESSCDVKLVEKSFETDTNLNFQNLSVIGFRILLLKVAGFNLLMTLRLWSS
TCR beta: DAGVIQSPRHEVTEMGQEVTLRCKPISGHNSLFWYRQTMMRGLELLIYFNNNVPIDDSGMPEDRFSAKMPNASFSTLKIQPSEPRDSAVYFCATSGDRGWQYFGPGTRLTVTEDLKNVFPPKVAVFEPSEAEISHTQKATLVCLATGFYPDHVELSWWVNGKEVHSGVSTDPQPLKEQPALNDSRYCLSSRLRVSATFWQNPRNHFRCQVQFYGLSENDEWTQDRAKPVTQIVSAEAWGRADCGFTSESYQQGVLSATILYEILLGKATLYAVLVSALVLMAMVKRKDSRG
No. of Cells: 2

B9: TCR_49: TCR to … / A*24:02 (protein)
TCR alpha: QTVTQSQPEMSVQEAETVTLSCTYDTSESDYYLFWYKQPPSRQMILVIRQEAYKQQNATENRFSVNFQKAAKSFSLKISDSQLGDAAMYFCAYTENNARLMFGDGTQLVVKPNIQNPDPAVYQLRDSKSSDKSVCLFTDFDSQTNVSQSKDSDVYITDKTVLDMRSMDFKSNSAVAWSNKSDFACANAFNNSIIPEDTFFPSPESSCDVKLVEKSFETDTNLNFQNLSVIGFRILLLKVAGFNLLMTLRLWSS
TCR beta: EAQVTQNPRYLITVTGKKLTVTCSQNMNHEYMSWYRQDPGLGLRQIYYSMNVEVTDKGDVPEGYKVSRKEKRNFPLILESPSPNQTSLYFCASSLQGTGYGYTFGSGTRLTVVEDLNKVFPPEVAVFEPSEAEISHTQKATLVCLATGFFPDHVELSWWVNGKEVHSGVSTDPQPLKEQPALNDSRYCLSSRLRVSATFWQNPRNHFRCQVQFYGLSENDEWTQDRAKPVTQIVSAEAWGRADCGFTSVSYQQGVLSATILYEILLGKATLYAVLVSALVLMAMVKRKDF
No. of Cells: 3

B10: TCR_60: TCR to … / A*02:01 (protein)
TCR alpha: TGQNIDQPTEMTATEGAIVQINCTYQTSGFNGLFWYQQHAGEAPTFLSYNVLDGLEEKGRFSSFLSRSKGYSYLLLKELQMKDSASYLCAVRDLGGQKLLFARGTMLKVDLNIQNPDPAVYQLRDSKSSDKSVCLFTDFDSQTNVSQSKDSDVYITDKTVLDMRSMDFKSNSAVAWSNKSDFACANAFNNSIIPEDTFFPSPESSCDVKLVEKSFETDTNLNFQNLSVIGFRILLLKVAGFNLLMTLRLWSS
TCR beta: DAGVTQSPTHLIKTRGQQVTLRCSPKSGHDTVSWYQQALGQGPQFIFQYYEEEERQRGNFPDRFSGHQFPNYSSELNVNALLLGDSALYLCASSLGQGSPAGANVLTFGAGSRLTVLEDLKNVFPPKVAVFEPSEAEISHTQKATLVCLATGFYPDHVELSWWVNGKEVHSGVSTDPQPLKEQPALNDSRYCLSSRLRVSATFWQNPRNHFRCQVQFYGLSENDEWTQDRAKPVTQIVSAEAWGRADCGFTSESYQQGVLSATILYEILLGKATLYAVLVSALVLMAMVKRKDSRG
No. of Cells: 2
